Test results as given in ChEMBL document CHEMBL5036347, “Design of the naphthyl-diarylpyrimidines as potent non-nucleoside reverse transcriptase inhibitors (NNRTIs) via structure-based extension into the entrance channel” (Eur J Med Chem, 2021).

Tests used:
[1] = biological target: Human immunodeficiency virus type 1 reverse transcriptase (Human immunodeficiency virus 1, UniProt Q72547, Y181C); assay: Inhibition of HIV1 reverse transcriptase Y181C mutant using oligo(dT)16 as primer measured after 40 mins by picogreen-dye based spectrofluorimetric analysis
[2] = biological target: Human immunodeficiency virus type 1 reverse transcriptase (Human immunodeficiency virus 1, UniProt Q72547, Y188L); assay: Inhibition of HIV1 reverse transcriptase Y188L mutant using oligo(dT)16 as primer measured after 40 mins by picogreen-dye based spectrofluorimetric analysis
[3] = biological target: Human immunodeficiency virus type 1 reverse transcriptase (Human immunodeficiency virus 1, UniProt Q72547, E138K); assay: Inhibition of HIV1 reverse transcriptase E138K mutant using oligo(dT)16 as primer measured after 40 mins by picogreen-dye based spectrofluorimetric analysis
[4] = biological target: Human immunodeficiency virus type 1 reverse transcriptase (Human immunodeficiency virus 1, UniProt Q72547, K103N/Y181C); assay: Inhibition of HIV1 reverse transcriptase K103N/Y181C double mutant using oligo(dT)16 as primer measured after 40 mins by picogreen-dye based spectrofluorimetric analysis
[5] = biological target: Human immunodeficiency virus type 1 reverse transcriptase (Human immunodeficiency virus 1, UniProt Q72547, F227L/V106A); assay: Inhibition of HIV1 reverse transcriptase F227L/V106A double mutant using oligo(dT)16 as primer measured after 40 mins by picogreen-dye based spectrofluorimetric analysis

Compound Cc1cc(C#N)cc(C)c1Oc1nc(Nc2ccc(C#N)cc2)nc(N)c1Br [ETRAVIRINE] has an IC50 [1] of 20 nM, an IC50 [2] of 40 nM and an IC50 [3] of 20 nM. The IC50 [4] was 10 nM and the IC50 [5] was 10 nM.
